Results from patent US20240122867A1, “CORONAL PROTEIN-COATED NANOPARTICLES AND USES THEREOF” (UNIVERSITY OF CENTRAL FLORIDA RESEARCH FOUNDATION, INC., priority 2021, published 2024).

Tested on: coronal proteins on NPs
Parameters: species or system mouse
Settings: for V5 Sera_Nanoparticles Quantitative Value (Normalized Total Spectra): HBPE-NPs incubated 1 h with IAV day 5 (V5) mouse sera, 20:1 NP:sera, centrifuged and washed; for V5 Sera Alone (Control) Quantitative Value (Normalized Total Spectra): IAV day 5 (V5) mouse sera alone, no NPs (sera-only control)

Molecule | V5 Sera_Nanoparticles Quantitative Value (Normalized Total Spectra) | V5 Sera Alone (Control) Quantitative Value (Normalized Total Spectra)
Keratin, type II cytoskeletal 1 (protein, UniProt P04104 1-637, looked up) Keratin, type II cytoskeletal …: MSLQCSSRSLCRGGGGSRNFSSGSAGLVSFQRRSTSSSMRRSGGGGGGRFSGGGFCGSSGSGFGSKSLMNLGGGRSISKSVAGGGGSFCGGFGGGSYGGGGFGGGSYGGGGFGGGSFGGGGFGGSGFGGGLGGGGGFGSGGGFGGGRFGSMGPVCPPGGIQEVTINQSLLQPLNVEVDPQIQKVKSQEREQIKSLNDKFASFIDKVRFLEQQNQVLQTKWELLQQVDTTTRTQNLDPFFENYISILRRKVDSLKSDQSRMDSELKNMQDLVEEYRTKYEDEINKRTNAENEFVTIKKDVDSAYMTKVELQAKADALQQDIDFFSALYQMEMSQMQTQISETNVVLSMDNNRSLDLDGIISEVKAQYDSICQRSKAEAETFYQSKYEELQITAGKHGDSVRNTKMEISELNRMIQRLRSEIDGCKKQISQIQQNINDAEQRGEKALKDAQNKLNEIEDALSQCKEDLARLLRDFQELMNTKLALDMEIATYKKLLEGEEIRMSGECTPNVSVSVSTSHTSMSGSSSRGGGSGGGRYGGGGSYGGGSGGGSYGGSSGGGGSGGSYGGGSGGGSYGGGSGGGSSGSHRGGSGGGGGSSGGSYGGSSGGGRGGSSSGGGGVKSSGSSTVKFVSTSYSRGTK | 3.2638 | 12.953
Complement C1q subcomponent subunit A (protein, UniProt P98086 23-245, looked up) Complement C1q subcomponent …: EDVCRAPNGKDGAPGNPGRPGRPGLKGERGEPGAAGIRTGIRGFKGDPGESGPPGKPGNVGLPGPSGPLGDSGPQGLKGVKGNPGNIRDQPRPAFSAIRQNPMTLGNVVIFDKVLTNQESPYQNHTGRFICAVPGFYYFNFQVISKWDLCLFIKSSSGGQPRDSLSFSNTNNKGLFQVLAGGTVLQLRRGDEVWIEKDPAKGRIYQGTEADSIFSGFLIFPSA | 4.3517 | 0
Murinoglobulin-1 (protein, UniProt P28665 28-1476, looked up) Murinoglobulin-1: DSKYMVLVPSQLYTETPEKICLHLYQLNETVTVTASLVSQSGRKNLFDELVLDKDLFQCVSFIIPRLSSSDEEDFLYVDIKGPTHEFSKRKAVLVKNKESVVFVQTDKPVYKPGQSVKFRVVSMDKMLRPLNELLPLAYIEDPKKNRIMQWRDIKTENGLKQMSFSLAAEPIQGPYKIVVHKESGEKEEHSFTVMEFVLPRFNVDLKVPNAMSVNDEVLSVTACGKYTYGKPVPGHVKINVCRETETGCREVNSQLDNNGCSTQEVNITELQSKKRNYEVQLFHVNATVTEEGTGLEFSRSGTTKIERITNKLIFLKADSHFRHGIPFFVKVRLVDIKGDPIPNEKVFIKAQELSYTSATTTDQHGLAEFSIDTTCISGSSLHIKVNHKEEDSCSYFYCMEERHASAKHVAYAVYSLSKSYIYLDTETSSILPCNQIHTVQAHFILKGDLGVLKELIFYYLVMAQGSIIQTGNHTHQVEPGEAPVKGKFALEIPVEFSMVPMAKMLIYTILPDGEVIADSVNFEIEKCLRNKVDLRFSTSQSLPASQTRLQVTASPQSLCGLRAVDQSVLLLKPESELSPSWIYNLPGMQQNKFVPSSRLSEDQEDCILYSSWLAEKHTNLVPHGTEKDVYRYVEDMGLTAFTNLMIKLPIICFDYGMVPISAPRVEFDLAFTPEISWSLRTTLSKRPEEPPRKDPSSNDPLTETIRKYFPETWVWDIVTVNSTGLAEVEMTVPDTITEWKAGALCLSNDTGLGLSSVVPLQAFKPFFVEVSLPYSVVRGEAFMLKATVMNYLPTSMQMSVQLEASPDFTAVPVGDDQDSYCLSANGRHTSSWLVTPKSLGNVNFSVSAEAQQSSEPCGSEVATVPETGRKDTVVKVLIVEPEGIKQEHTFSSLFCASDAEISEKMSLVLPPTVVKDSARAHFSVMGDILSSAIRNTQNLLHMPYGCGEQNMVLFAPNIYVLKYLNETQQLTQKIKTKALGFLRAGYQRELNYKHKDGSYSAFGDQNGEREGNTWLTAFVLKSFAQARAFIFIDESHITHAFTWLSQKQKDNGCFRSSGSLFNNAMKGGVDDEMTLSAYITMALLESSLPATHPVVSKALSCLESSWKTIEQERNASFVYTKALMAYAFALAGNQNKRDEILKSLDEEAIKENNSIHWKRPQKSRKSEHHLYKPQASSAEVEMNAYVVLARLTAQPAPSPEDLTLSMSTIMWLTKQQNSNGGFSSTQDTVVALDALSKYGAVTFSRSQKTTLVTIQSTGSFSQKFQVENSNRLLLQQVALPDIPGDYTISVSGEGCVYAQTMLRYNMHLEKQLSAFAIWVQTVPLTCNNPKGHNSFQISLEISYTGSRPASNMVIADVKMLSGFIPLKPTVKKLERLEHVSRTEVSNNNVLIYLDQVTNQTLAFSFIIQQDIPVRNLQPAIVKVYDYYETDEMAFAEYSSPCSTDKQNV | 63.099 | 61.99
Phosphatidylcholine-sterol acyltransferase (protein, UniProt P16301 25-438, looked up) Phosphatidylcholine-sterol …: FWLLNVLFPPHTTPKAELSNHTRPVILVPGCLGNRLEAKLDKPDVVNWMCYRKTEDFFTIWLDFNLFLPLGVDCWIDNTRIVYNHSSGRVSNAPGVQIRVPGFGKTESVEYVDDNKLAGYLHTLVQNLVNNGYVRDETVRAAPYDWRLAPHQQDEYYKKLAGLVEEMYAAYGKPVFLIGHSLGCLHVLHFLLRQPQSWKDHFIDGFISLGAPWGGSIKAMRILASGDNQGIPILSNIKLKEEQRITTTSPWMLPAPHVWPEDHVFISTPNFNYTVQDFERFFTDLHFEEGWHMFLQSRDLLERLPAPGVEVYCLYGVGRPTPHTYIYDHNFPYKDPVAALYEDGDDTVATRSTELCGQWQGRQSQPVHLLPMNETDHLNMVFSNKTLEHINAILLGAYRTPKSPAASPSPPPPE | 4.3517 | 6.4766
Zinc-alpha-2-glycoprotein (protein, UniProt Q64726 18-307, looked up) Zinc-alpha-2-glycoprotein: QETGSYYLTFLYTGLSRPSKGFPRFQATAFLNDQAFFHYNSNSGKAEPVGPWSQVEGMEDWEKESQLQRAREEIFLVTLKDIMDYYKDTTGSHTFQGMFGCEITNNRSSGAVWRYAYDGEDFIEFNKEIPAWIPLDPAAANTKLKWEAEKVYVQRAKAYLEEECPEMLKRYLNYSRSHLDRIDPPTVTITSRVIPGGNRIFKCLAYGFYPQRISLHWNKANKKLAFEPERGVFPNGNGTYLSWAEVEVSPQDIDPFFCLIDHRGFSQSLSVQWDRTRKVKDENNVVAQPQ | 4.3517 | 3.7009
Interleukin-1 receptor accessory protein (protein, UniProt Q61730 21-570, looked up) Interleukin-1 receptor …: SERCDDWGLDTMRQIQVFEDEPARIKCPLFEHFLKYNYSTAHSSGLTLIWYWTRQDRDLEEPINFRLPENRISKEKDVLWFRPTLLNDTGNYTCMLRNTTYCSKVAFPLEVVQKDSCFNSAMRFPVHKMYIEHGIHKITCPNVDGYFPSSVKPSVTWYKGCTEIVDFHNVLPEGMNLSFFIPLVSNNGNYTCVVTYPENGRLFHLTRTVTVKVVGSPKDALPPQIYSPNDRVVYEKEPGEELVIPCKVYFSFIMDSHNEVWWTIDGKKPDDVTVDITINESVSYSSTEDETRTQILSIKKVTPEDLRRNYVCHARNTKGEAEQAAKVKQKVIPPRYTVELACGFGATVFLVVVLIVVYHVYWLEMVLFYRAHFGTDETILDGKEYDIYVSYARNVEEEEFVLLTLRGVLENEFGYKLCIFDRDSLPGGIVTDETLSFIQKSRRLLVVLSPNYVLQGTQALLELKAGLENMASRGNINVILVQYKAVKDMKVKELKRAKTVLTVIKWKGEKSKYPQGRFWKQLQVAMPVKKSPRWSSNDKQGLSYSSLKNV | 4.3517 | 0.9252
Immunoglobulin J chain (protein, UniProt P01592 22-159, looked up) Immunoglobulin J chain: GDDEATILADNKCMCTRVTSRIIPSTEDPNEDIVERNIRIVVPLNNRENISDPTSPLRRNFVYHLSDVCKKCDPVEVELEDQVVTATQSNICNEDDGVPETCYMYDRNKCYTTMVPLRYHGETKMVQAALTPDSCYPD | 4.3517 | 2.7757
Serum amyloid A-4 protein (protein, UniProt P31532 19-130, looked up) Serum amyloid A-4 protein: DGWYSFFREAVQGTWDLWRAYRDNLEANYQNADQYFYARGNYEAQQRGSGGIWAAKIISTSRKYFQGLLNRYYFGIRNHGLETLQATQKAEEWGRSGKNPNHFRPEGLPEKF | 4.3517 | 10.178
Keratin, type II cytoskeletal 2 epidermal (protein, UniProt Q3TTY5 1-707, looked up) Keratin, type II cytoskeletal …: MSCQISCRSRRGGGGGGGGGFRGFSSGSAVVSGGSRRSNTSFSCISRHGGGRGGSGGGGFGSQSLVGLGGYKSISSSVAGNSGGYGGSSFGGSSGFGGGRGFGGGQGFGGSGGFGGGSGFGGGQGFGGGSRFGGGSGFGGGGFGGGSFGGGRFGGGPGGFGGPGGFPGGGIHEVSVNQSLLQPLDVKVDPEIQNVKSQEREQIKTLNNKFASFIDKVRFLEQQNQVLRTKWELLQQLDVGSRTTNLDPIFQAYIGMLKKQVDRLSAERTSQESELNNMQDLVEDFKKKYEDEINKRTSAENDFVTIKKDVDSCYMDKTELQARLDILAQEVNFLRTLYDAELSQLQQDVTDTNVILSMDNNRNLDLDSIIAEVQNQYEMIAHKSKAESEELYHSKYEELQVTAVKHGDSLKEIKMEISELNRTIQRLQGEISHVKKQCKGVQDSIADAEQRGEHAIKDARGKLTDLEEALQQCREDLARLLRDYQELMNTKLSLDVEIATYRKLLEGEECRMSGDFSDNVSVSITSSTISSSVASKTGFGSGGQSSGGRGSYGGRGGGGGGGSTYGSGGRSSGSRGSGSGSGGGGYSSGGGSRGGSGGGYGSGGGSRGGSGGGYGSGGGSGSGGGYSSGGGSRGGSGGGGVSSGGGSRGGSSSGGGSRGGSSSGGGGYSSGGGSRGGSSSGGAGSSSEKGGSGSGEGCGSGVTFSFR | 3.2638 | 5.5514
Carboxypeptidase N catalytic chain (protein, UniProt Q9JJN5 24-457, looked up) Carboxypeptidase N catalytic …: RHHRYDDLVRTLYKVHNQCPDITRLYNIGRSVKGRYLYVLEFSDYPGIHEPLEPEVKYVGNMHGNEVLGRELLLQLSEFLCEEFRNRNQRILRLIQDTRIHILPSMNPDGYEVAAAQGPNMSGYLVGRNNANGVDLNRNFPDLNTYFYYNSKNGGPNHHLPLPDNWKSQVEPETRAVIQWIRSLNFVLSANMHGGAVVANYPYDKSLEHRFRGPHRTSNSPTPDDELFQTLAKVYSYAHGWMHQGWNCGDYFPDGITNGASWYSLSKGMQDFNYLHTNCFEITLELSCDKFPRQEELQREWLGNREALIQFLEQVHQGIKGMVLDENSNNLTGAVISVTGINHDVTSGEHGDYFRLLLPGTYSVTAKAPGYDPKTVTVTVGPAGPTVVDFQLKRSSSQVYPVQRAPGRGQGGRAKQPRTSRKKDPATKRHRGPA | 4.3517 | 1.8505
